This passage reports inhibition results from PubChem BioAssay AID2560 (University of Pittsburgh Molecular Library Screening Center, 2010).

The entries are a selection whose mix differs from that of the whole data set. Calls of active or inactive are those of the source.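 How the source made its calls: active means inhibition of at least 50% in both of the two screening runs; inconclusive means at least 50% in one run, below 50% in the other; inactive means inhibition below 50% in both runs.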

In the test the test system is hexokinase 1 (Trypanosoma brucei). Kind of test: T. brucei hexokinase 1 inhibition, single-dose recheck – biochemical, DPI cherry-picked primary actives, confirmation (AID 2560).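 Further: 0% and 100% set by the maximum and minimum signal control wells on each plate.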 The note with it: recombinant TbHK1, G6PDH-coupled NADH A340 absorbance; at 10 µM; active compounds read high. The procedure, abridged: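 System: Trypanosoma brucei hexokinase 1 enzyme with G6PDH coupling enzyme; Medium: Mg2+, NAD+ and G6PDH coupling mix; Reagent: substrates glucose 0.5 mM and ATP 0.35 mM; Doses: single compound dose of 10 µM final; Incubation: enzyme reaction 2 h at room temperature; Signal: A340 NADH absorbance, EDTA-quenched; Repeats: duplicate measurements per compound.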

As to `O=P(Nc1nccs1)(c1ccccc1)c1nc2ccccc2s1` (stereo unspecified), the inhibition was active: 88%.
